Anti-infective test results gathered from many reports (values: NIAID ChemDB through PubChem).

Common to all: tests in culture; organism: HIV-1; read-out: EC50

Neighbouring rows are from separate reports.

CC(C)C1=C2[C@H]3CC[C@@H]4[C@@]5(C)CC[C@H](OC(=O)[C@H]6C[C@@H](C(=O)O)C6(C)C)C(C)(C)[C@@H]5CC[C@@]4(C)[C@]3(C)CC[C@@]2(CCNCC(C)(C)NC(=O)c2ccc(N3CCN(C)CC3)cc2)CC1=O ; strain: 92HT599 ; method: p24 / ELISA ; cell line: MT-2 ; result: <1 µM
CCC(=O)c1ccc(F)c([C@@H]2C[C@@H]2NC(=O)Nc2ccc(C#N)cn2)c1O ; strain: LAI ; method: β-galactosidase / luminescence ; cell line: TZM-bl ; changes: NNRTI-resistant (RT Y181V) ; result: 0.0396 µM
Cc1cc(C#N)cc(C(=O)c2cc(Cl)ccc2OCC(=O)Nc2ccc(S(N)(=O)=O)cc2C)c1 ; strain: HXB2 ; method: β-galactosidase ; cell line: HeLa + HELA CD4+ ; changes: RT-L100I ; result: <0.01 µM
Cc1cc(Cl)ccc1OCCN(C)c1ccc(-c2cnc(C)c([C@H](OC(C)(C)C)C(=O)O)c2N2CCC(C)(C)CC2)nc1 ; strain: NL4-3 ; method: luminescence ; cell line: MT-2 ; result: 0.0013 µM
Cc1cc2cn[nH]c2cc1NC(=O)COc1ccc(Cl)cc1C(=O)c1cccc(C#N)c1 ; strain: HXB2 ; method: β-galactosidase ; cell line: HeLa + HELA CD4+ ; changes: RT-L100I ; result: <0.01 µM
CC1CC(C)CN(S(=O)(=O)c2ccccc2[N+](=O)[O-])C1 ; strain: AE-CMU06 ; method: GFP / fluorescence ; cell line: HeLa ; result: 0.1 µM
Cc1ncc(-c2ccc(OCCOc3ccccc3C(=O)O)cn2)c(N2CCC(C)(C)CC2)c1[C@H](OC(C)(C)C)C(=O)O ; strain: NL4-3 ; method: luminescence ; cell line: MT-2 ; result: 0.1514 µM
Cc1cc(C#N)cc(C(=O)c2cc(Cl)ccc2OCC(=O)Nc2ccc(OCCCN3CC=CC3)cc2C)c1 ; strain: HXB2 (RT-K103N Y181C) Recombinant ; method: β-galactosidase ; cell line: HeLa + HELA CD4+ ; changes: RT-K103N Y181C ; result: <0.01 µM
Cc1cccc(C)c1OCCN(C)c1ccc(-c2cnc(C)c([C@H](OC(C)(C)C)C(=O)O)c2N2CCC(C)(C)CC2)nc1 ; strain: NL4-3 ; method: luminescence ; cell line: MT-2 ; result: 0.0032 µM
CC(C)C1=C2[C@H]3CC[C@@H]4[C@@]5(C)CC[C@H](OC(=O)[C@H]6C[C@@H](C(=O)O)C6(C)C)C(C)(C)[C@@H]5CC[C@@]4(C)[C@]3(C)CC[C@@]2(CCNCC(C)(C)NC(=O)c2ccc(O[C@H]3CCOC3)cc2)CC1=O ; strain: 92HT599 ; method: p24 / ELISA ; cell line: MT-2 ; result: <1 µM
Cc1cc(Cl)cc(C(=O)c2cc(Cl)ccc2OCC(=O)Nc2ccc(S(N)(=O)=O)cc2C)c1 ; strain: HXB2 ; method: β-galactosidase ; cell line: HeLa + HELA CD4+ ; changes: RT-K103N ; result: 0.101–1 µM
CC(C)C1=C2[C@H]3CC[C@@H]4[C@@]5(C)CC[C@H](OC(=O)[C@H]6C[C@@H](C(=O)O)C6(C)C)C(C)(C)[C@@H]5CC[C@@]4(C)[C@]3(C)CC[C@@]2([C@@H](O)CNCc2ccc(S(C)(=O)=O)cc2)CC1=O ; strain: 92HT599 ; method: p24 / ELISA ; cell line: MT-2 ; result: <1 µM
Cc1cc(S(N)(=O)=O)ccc1NC(=O)COc1ccc(Cl)cc1C(=O)c1cc(F)cc(F)c1 ; strain: Nevirapine-resistant (RT Y181C) ; method: cytopathic effect / propidium iodide ; cell line: MT-4 ; changes: RT-Y181C ; result: <0.01 µM
Cc1ncc(-c2ccc(OCCOc3ccc(F)cc3Cl)nc2)c(N2CCC(C)(C)CC2)c1[C@H](OC(C)(C)C)C(=O)O ; strain: NL4-3 ; method: luminescence ; cell line: MT-2 ; result: 0.0024 µM
CCc1cc(C#N)cc(C(=O)c2cc(Cl)ccc2OCC(=O)Nc2ccc(S(N)(=O)=O)cc2C)c1 ; strain: HXB2 ; method: β-galactosidase ; cell line: HeLa + HELA CD4+ ; changes: RT-V108I Y181C ; result: <0.01 µM
COc1cc(F)ccc1OCCNc1ccc(-c2cnc(C)c([C@H](OC(C)(C)C)C(=O)O)c2N2CCC(C)(C)CC2)cn1 ; strain: NL4-3 ; method: luminescence ; cell line: MT-2 ; result: 0.0013 µM
CC(C)C1=C2[C@H]3CC[C@@H]4[C@@]5(C)CC[C@H](OC(=O)[C@H]6C[C@@H](C(=O)O)C6(C)C)C(C)(C)[C@@H]5CC[C@@]4(C)[C@]3(C)CC[C@@]2([C@@H](O)CNCC(CCCCN)NC(=O)c2ccc(Cl)cc2)CC1=O ; strain: 92HT599 ; method: p24 / ELISA ; cell line: MT-2 ; result: <1 µM
COc1ccccc1OCCOc1ccc(-c2cnc(C)c([C@H](OC(C)(C)C)C(=O)O)c2N2CCC(C)(C)CC2)nc1 ; strain: NL4-3 ; method: luminescence ; cell line: MT-2 ; result: 0.0024 µM
Cc1cc(C)cc(C(=O)c2cc(Cl)ccc2OCC(=O)Nc2ccc(S(N)(=O)=O)cc2C)c1 ; strain: WTRVA ; method: β-galactosidase ; cell line: HeLa + HELA CD4+ ; result: <0.01 µM
CC(C)C1=C2[C@H]3CC[C@@H]4[C@@]5(C)CC[C@H](OC(=O)[C@H]6C[C@@H](C(=O)O)C6(C)C)C(C)(C)[C@@H]5CC[C@@]4(C)[C@]3(C)CC[C@@]2(CC(=O)NCC2CCNCC2)CC1=O ; strain: 92HT599 ; method: p24 / ELISA ; cell line: MT-2 ; result: <1 µM
Cc1ccc(OCCOc2ccc(-c3cnc(C)c([C@H](OC(C)(C)C)C(=O)O)c3N3CCC(C)(C)CC3)cn2)c(Cl)c1 ; strain: NL4-3 ; method: luminescence ; cell line: MT-2 ; result: 0.0045 µM
CC(C)C1=C2[C@H]3CC[C@@H]4[C@@]5(C)CC[C@H](OC(=O)[C@H]6C[C@@H](C(=O)O)C6(C)C)C(C)(C)[C@@H]5CC[C@@]4(C)[C@]3(C)CC[C@@]2([C@@H](O)CNCC(C)(C)NC(=O)CN(C)C)CC1=O ; strain: 92HT599 ; method: p24 / ELISA ; cell line: MT-2 ; result: <1 µM
CC(=O)c1c(C)nc(-c2ccccc2)nc1NC(=O)c1ccccc1 ; strain: 10076-4 ; method: GFP / fluorescence ; cell line: HeLa ; result: 0.1 µM

Repeating the first 2 entries:

SMILES,strain,method,cell line,changes,result
CC(C)C1=C2[C@H]3CC[C@@H]4[C@@]5(C)CC[C@H](OC(=O)[C@H]6C[C@@H](C(=O)O)C6(C)C)C(C)(C)[C@@H]5CC[C@@]4(C)[C@]3(C)CC[C@@]2(CCNCC(C)(C)NC(=O)c2ccc(N3CCN(C)CC3)cc2)CC1=O,92HT599,p24 / ELISA,MT-2,-,<1 µM
CCC(=O)c1ccc(F)c([C@@H]2C[C@@H]2NC(=O)Nc2ccc(C#N)cn2)c1O,LAI,β-galactosidase / luminescence,TZM-bl,NNRTI-resistant (RT Y181V),0.0396 µM

a–b is a range or a potency band. ECn: concentration that inhibits the pathogen or its effect by n%. Blank or dashed fields: not listed here.